Reference: patent publication US20160176914A1, “GLYCOSYLATED CARDIOTONIC STEROIDS” (priority 2013, published 2016)

Test system: HCMV
Test: Anti-CMV activity assay, inhibition of HCMV replication in infected HFFs
Type: cell-based, human Cytomegalovirus (HCMV)
Details: CC50 noninfected HFFs / EC50 infected HFFs
Method: It has been observed that the infection of human foreskin fibroblasts (HFF) cells with HCMV causes an up regulation of the α3-isoform of the Na^+/K^+-Pump. Therefore the inhibition of HCMV replication by the compounds described herein was tested using procedure described by Cai, H. et al., in Med. Chem. Lett. 2014, 5, 395-399, which is incorporated by reference in its entirety. Generally, inhibition of Towne HCMV: pp28-luciferase activity was measured in cell lysates of HCMV-infected HFFs collected at 72 h post infection (hpi). Virus DNA yield in supernatants of HCMV-infected cells collected at 96 hpi was measured by real-time PCR. Plaque reduction assay performed at 8 days postinfection. Data represent mean values (±SD) of triplicate determinations from three independent experiments.
Inhibition of TB40 HCMV: HFFs were infected with HCMV-TB40 strain at MOI of 1 pfu/cell and treated with compounds listed in Tables 1-3 for 3 days.
The glycosylated cardiotonic steroid compounds were tested for their anti-cytomegalovirus (CMV) activity. Specifically, the compounds were tested for the ability to inhibit HCMV replication. For each compound, the anti-HCMV activity in infected HFFs was expressed as EC50, whereas cytotoxicity in noninfected HFFs was expressed as CC50. Selectivity index (SI), defined as CC50/EC50, was calculated for each compound.

Substance | SI (selectivity index, CC50/EC50)
α-D-Amicetose | 29.46
α-D-Rhamnose | 85.52
